Consider eight compounds from BindingDB's records for 31194549.

Amino acid sequences for entries named in this document (tags omitted). Residues count along the entry.
UniProt P04757, 26-499 limits assumed: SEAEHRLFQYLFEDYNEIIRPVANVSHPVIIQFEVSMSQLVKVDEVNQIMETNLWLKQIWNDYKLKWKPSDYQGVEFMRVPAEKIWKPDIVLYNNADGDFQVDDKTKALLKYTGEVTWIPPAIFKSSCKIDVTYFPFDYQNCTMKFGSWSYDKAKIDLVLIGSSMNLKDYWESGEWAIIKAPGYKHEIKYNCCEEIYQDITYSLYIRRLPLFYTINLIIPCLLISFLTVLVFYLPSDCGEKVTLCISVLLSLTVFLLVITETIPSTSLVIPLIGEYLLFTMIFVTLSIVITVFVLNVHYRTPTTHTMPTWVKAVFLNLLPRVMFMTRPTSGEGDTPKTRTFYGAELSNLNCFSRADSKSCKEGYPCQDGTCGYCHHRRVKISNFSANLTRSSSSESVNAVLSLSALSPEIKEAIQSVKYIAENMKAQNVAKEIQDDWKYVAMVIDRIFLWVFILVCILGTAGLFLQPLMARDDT
UniProt P12392, 21-495 limits assumed: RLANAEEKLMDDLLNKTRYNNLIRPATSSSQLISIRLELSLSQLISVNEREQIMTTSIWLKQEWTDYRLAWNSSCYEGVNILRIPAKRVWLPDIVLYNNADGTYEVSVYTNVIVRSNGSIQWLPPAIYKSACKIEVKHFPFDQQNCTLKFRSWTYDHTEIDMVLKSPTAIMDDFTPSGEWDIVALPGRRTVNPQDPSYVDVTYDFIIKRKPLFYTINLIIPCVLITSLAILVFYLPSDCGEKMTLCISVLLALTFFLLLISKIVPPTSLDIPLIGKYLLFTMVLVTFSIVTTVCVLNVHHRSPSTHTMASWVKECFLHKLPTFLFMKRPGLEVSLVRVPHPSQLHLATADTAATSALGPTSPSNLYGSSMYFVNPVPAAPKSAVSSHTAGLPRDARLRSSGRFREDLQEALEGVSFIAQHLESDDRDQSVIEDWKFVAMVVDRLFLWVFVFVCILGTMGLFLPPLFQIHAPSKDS
UniProt Q05941, 23-502 limits assumed: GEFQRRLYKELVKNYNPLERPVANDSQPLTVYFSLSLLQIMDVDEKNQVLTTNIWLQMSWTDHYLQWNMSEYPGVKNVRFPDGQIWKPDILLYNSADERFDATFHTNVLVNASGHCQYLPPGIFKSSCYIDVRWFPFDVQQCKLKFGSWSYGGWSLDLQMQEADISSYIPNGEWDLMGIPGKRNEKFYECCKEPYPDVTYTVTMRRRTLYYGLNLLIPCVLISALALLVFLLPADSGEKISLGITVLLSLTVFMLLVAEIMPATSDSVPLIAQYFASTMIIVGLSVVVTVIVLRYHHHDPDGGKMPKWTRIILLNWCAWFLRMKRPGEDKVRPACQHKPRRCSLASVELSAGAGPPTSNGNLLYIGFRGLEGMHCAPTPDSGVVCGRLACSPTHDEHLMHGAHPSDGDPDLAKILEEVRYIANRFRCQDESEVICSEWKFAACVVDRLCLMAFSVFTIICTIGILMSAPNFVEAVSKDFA
UniProt P09483, 31-630 limits assumed: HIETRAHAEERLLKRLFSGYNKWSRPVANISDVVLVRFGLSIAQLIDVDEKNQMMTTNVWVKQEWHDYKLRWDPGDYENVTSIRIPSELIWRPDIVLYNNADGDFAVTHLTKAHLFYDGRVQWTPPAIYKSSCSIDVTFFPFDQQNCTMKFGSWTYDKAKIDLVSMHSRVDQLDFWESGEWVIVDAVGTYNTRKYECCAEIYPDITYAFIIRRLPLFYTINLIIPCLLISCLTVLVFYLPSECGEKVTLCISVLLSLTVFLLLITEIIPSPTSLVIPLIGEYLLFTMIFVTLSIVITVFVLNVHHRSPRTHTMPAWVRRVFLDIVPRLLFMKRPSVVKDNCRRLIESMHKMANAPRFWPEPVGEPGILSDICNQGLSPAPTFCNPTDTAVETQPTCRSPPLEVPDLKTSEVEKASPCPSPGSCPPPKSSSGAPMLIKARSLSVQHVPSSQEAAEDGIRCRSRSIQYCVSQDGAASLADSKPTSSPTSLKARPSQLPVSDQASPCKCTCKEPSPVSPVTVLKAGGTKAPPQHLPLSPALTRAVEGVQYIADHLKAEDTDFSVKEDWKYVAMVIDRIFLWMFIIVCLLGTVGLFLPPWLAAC
UniProt P12390, 25-500 limits assumed: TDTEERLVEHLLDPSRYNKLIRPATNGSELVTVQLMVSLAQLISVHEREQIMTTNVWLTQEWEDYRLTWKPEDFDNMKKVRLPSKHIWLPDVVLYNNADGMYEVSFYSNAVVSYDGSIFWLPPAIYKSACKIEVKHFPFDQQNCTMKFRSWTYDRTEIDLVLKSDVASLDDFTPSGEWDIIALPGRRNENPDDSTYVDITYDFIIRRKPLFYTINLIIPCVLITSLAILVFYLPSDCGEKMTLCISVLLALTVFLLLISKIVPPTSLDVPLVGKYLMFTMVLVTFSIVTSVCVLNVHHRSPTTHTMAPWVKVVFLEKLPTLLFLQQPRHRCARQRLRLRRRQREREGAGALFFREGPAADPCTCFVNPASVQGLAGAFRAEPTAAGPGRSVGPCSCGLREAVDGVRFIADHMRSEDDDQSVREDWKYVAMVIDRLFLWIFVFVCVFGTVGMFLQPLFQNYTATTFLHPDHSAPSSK

Assay [1] addresses Neuronal acetylcholine receptor subunit alpha-3/beta-4 (Rattus norvegicus, UniProt P04757+P12392).
In assay [2] the target is Neuronal acetylcholine receptor subunit alpha-7 (Rattus norvegicus, UniProt Q05941).
The target in assay [3] is Neuronal acetylcholine receptor subunit alpha-4/beta-2 (Rattus norvegicus, UniProt P09483+P12390).
Assay [4] deals with Neuronal acetylcholine receptor subunit alpha-3/beta-2 (Rattus norvegicus, UniProt P12390+P04757).

As to `CC[C@H](C)[C@@H]1NC(=O)[C@H](CCC(=O)O)NC(=O)[C@@H]2CCCN2C(=O)[C@H](Cc2cnc[nH]2)NC(=O)[C@H](CCCCC(=O)O)NC(=O)[C@H]([C@@H](C)CC)NC(=O)[C@H](Cc2cnc[nH]2)NC(=O)[C@@H]2CSSC[C@H](NC(=O)CN)C(=O)N[C@@H](CSSC[C@@H](C(N)=O)NC1=O)C(=O)N[C@@H](CO)C(=O)N[C@@H](Cc1cnc[nH]1)C(=O)N1CCC[C@H]1C(=O)N[C@@H](C)C(=O)N2`, the IC50 (in general, the midpoint of a concentration-inhibition curve) in assay [1] amounted to 341 nM; in assay [2] it was 35 nM; in assay [3], 572 nM; in assay [4] it was 0.57 nM.
Consider `CC[C@H](C)[C@@H]1NC(=O)[C@H](CCC(=O)O)NC(=O)[C@@H]2CCCN2C(=O)[C@H](Cc2cnc[nH]2)NC(=O)[C@H](CC(N)=O)NC(=O)[C@H]([C@@H](C)CC)NC(=O)[C@H](Cc2cnc[nH]2)NC(=O)[C@@H]2CSSC[C@H](NC(=O)CN)C(=O)N[C@@H](CSSC[C@@H](C(N)=O)NC1=O)C(=O)N[C@@H](CO)C(=O)N[C@@H](Cc1cnc[nH]1)C(=O)N1CCC[C@H]1C(=O)N[C@@H](C)C(=O)N2`, for which the IC50 in assay [4] turned out to be 0.28 nM.
On the same count and under the same terms, under `CC[C@H](C)[C@@H]1NC(=O)[C@H](Cc2cnc[nH]2)NC(=O)[C@@H]2CSSC[C@H](NC(=O)CN)C(=O)N[C@@H](CSSC[C@@H](C(N)=O)NC(=O)[C@H](CC(C)C)NC(=O)[C@H](CCC(=O)O)NC(=O)[C@@H]3CCCN3C(=O)[C@H](Cc3cnc[nH]3)NC(=O)[C@H](CCC(=O)O)NC1=O)C(=O)N[C@@H](CO)C(=O)N[C@@H](Cc1cnc[nH]1)C(=O)N1CCC[C@H]1C(=O)N[C@@H](C)C(=O)N2` stands 1.2 nM.
The same measure, in the same setting: under `CC[C@H](C)[C@@H]1NC(=O)[C@H](Cc2cnc[nH]2)NC(=O)[C@@H]2CSSC[C@H](NC(=O)CN)C(=O)N[C@@H](CSSC[C@@H](C(N)=O)NC(=O)[C@H](CC(C)C)NC(=O)[C@H](CCC(=O)O)NC(=O)[C@@H]3CCCN3C(=O)[C@H](Cc3cnc[nH]3)NC(=O)[C@H](CCCCCC(=O)O)NC1=O)C(=O)N[C@@H](CO)C(=O)N[C@@H](Cc1cnc[nH]1)C(=O)N1CCC[C@H]1C(=O)N[C@@H](C)C(=O)N2` stands 1.3 nM; under `CC[C@H](C)[C@@H]1NC(=O)[C@H](Cc2cnc[nH]2)NC(=O)[C@@H]2CSSC[C@H](NC(=O)CN)C(=O)N[C@@H](CSSC[C@@H](C(N)=O)NC(=O)[C@H](CC(C)C)NC(=O)[C@H](CCC(=O)O)NC(=O)[C@@H]3CCCN3C(=O)[C@H](Cc3cnc[nH]3)NC(=O)[C@H](CC(N)=O)NC1=O)C(=O)N[C@@H](CO)C(=O)N[C@@H](Cc1cnc[nH]1)C(=O)N1CCC[C@H]1C(=O)N[C@@H](C)C(=O)N2`, 0.29 nM.
On the same count and under the same terms, under `CC[C@H](C)[C@@H]1NC(=O)[C@H](Cc2cnc[nH]2)NC(=O)[C@@H]2CSSC[C@H](NC(=O)CN)C(=O)N[C@@H](CSSC[C@@H](C(N)=O)NC(=O)[C@H](CC(C)C)NC(=O)[C@H](CCC(=O)O)NC(=O)[C@@H]3CCCN3C(=O)[C@H](Cc3cnc[nH]3)NC(=O)[C@H](CC(=O)O)NC1=O)C(=O)N[C@@H](CO)C(=O)N[C@@H](Cc1cnc[nH]1)C(=O)N1CCC[C@H]1C(=O)N[C@@H](C)C(=O)N2` stands 1.7 nM.
For the compound `CC[C@H](C)[C@@H]1NC(=O)[C@H](Cc2cnc[nH]2)NC(=O)[C@@H]2CSSC[C@H](NC(=O)CN)C(=O)N[C@@H](CSSC[C@@H](C(N)=O)NC(=O)[C@H](CC(C)C)NC(=O)[C@H](CCC(=O)O)NC(=O)[C@@H]3CCCN3C(=O)[C@H](Cc3cnc[nH]3)NC(=O)[C@H](CCCCC(=O)O)NC1=O)C(=O)N[C@@H](CO)C(=O)N[C@@H](Cc1cnc[nH]1)C(=O)N1CCC[C@H]1C(=O)N[C@@H](C)C(=O)N2`, the IC50 in assay [1] was found to be 501 nM; in assay [2], 32 nM; in assay [3] it was 280 nM; in assay [4], 0.38 nM.
For the compound `CC[C@H](C)[C@@H]1NC(=O)[C@H](Cc2cnc[nH]2)NC(=O)[C@@H]2CSSC[C@H](NC(=O)CN)C(=O)N[C@@H](CSSC[C@@H](C(N)=O)NC(=O)[C@H](CC(C)C)NC(=O)[C@H](CCC(=O)O)NC(=O)[C@@H]3CCCN3C(=O)[C@H](Cc3cnc[nH]3)NC(=O)[C@H](CCCC(=O)O)NC1=O)C(=O)N[C@@H](CO)C(=O)N[C@@H](Cc1cnc[nH]1)C(=O)N1CCC[C@H]1C(=O)N[C@@H](C)C(=O)N2`, the IC50 in assay [4] is 3 nM.
